# Screening data, single-dose tests

The values are deposited in ChEMBL (CHEMBL3988442, “University of Dundee, Small-Polar-MMV Screening Library” (2021)).

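Growth of Mycobacterium tuberculosis over 4 days (cholesterol / DPPC medium with tyloxapol); the read-out is not stated. Tested at 500 µM. Higher reads as more growth inhibition (inferred: compounds with an IC50 in retests scored well above the rest). Of about 18,000 compounds tested this way, about 900 (5%) reached 50% or more in at least one test.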

Results are given as percent effect.
How 0% and 100% were set is not recorded. Most values in the screen are low, and negative values occur.
This is part of a subset picked to be rich in strong results.

structure	effect
O=C(Nc1nncs1)NC1CCCC1	11.65
CC(=O)NCCNC(=O)N1CCc2sccc2C1	-9.367
Cc1cc(-c2noc(C(C)N)n2)ccc1F (stereo unspecified)	57.79
CCCN1CCN(C(=O)c2c(C)nn(C)c2C)CC1	7.586
Cc1cc(NC(CO)CO)nc2ccccc12	8.314
CNC(=O)CNC(=O)c1ccc(C#N)c(C)n1	-13.17
CO[C@H]1CNCC1NC(=O)c1ccc2ncccc2c1 (stereo partly specified)	10.24
O=C(Nc1nc(-c2cccs2)ns1)C1CCCN1 (stereo unspecified)	10.14
Cc1ccncc1NC(=O)Nc1cnccc1C	-13.73
CC(=O)N1CCC(CNC(=O)Nc2ccc(C)s2)CC1	-5.72
O=C(c1ccc[nH]1)N1CCC(Nc2cccnc2)CC1	-1.061
COc1cccc(CNc2ccccn2)c1O	37.25
COC(=O)CNC(C)c1c(F)cccc1OC (stereo unspecified)	-19.62
CC(=O)Nc1ccc(F)c(C(=O)N2CCCCO2)c1	4.044
c1c[nH]c(CN2CCN(C3CCOCC3)CC2)n1	5.599
COc1ccc(CNCc2ccc(C(N)=O)cc2)cc1	0.9661
Cn1cc(Cl)c(C(=O)N2CCC3(CCO3)CC2)n1	2.087
COc1ccc(O)c(C(=O)NC(C)c2n[nH]c(C)n2)c1 (stereo unspecified)	12.41
Nc1c[nH]nc1C(=O)NCc1cccc(Cl)c1	-12.65
CC(C)Oc1ccc(C(O)CN)cc1 (stereo unspecified)	19.29

The first 2 entries again:

* O=C(Nc1nncs1)NC1CCCC1 | 11.65%
* CC(=O)NCCNC(=O)N1CCc2sccc2C1 | -9.367%